RC index of single-base changes in HIV-1 Gag

Protein: Gag of HIV-1 NL4-3, numbered from its first residue. Gag is numbered as the whole polyprotein.
Effects on overlapping genes or RNA elements are not listed.

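Seven fragments of pNL4-3 were mutated by error-prone PCR, and each virus pool was passaged in CEM T cells. Sequencing gave the RC index: frequency after two rounds over frequency in the input plasmid.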

A higher RC index is a better tolerated change; approximate classes are lethal up to 0.1, attenuated to 0.2, tolerated above.
A change reads original residue, position, new residue.
Input reads are the counts in the plasmid library.

substitution,base,region,input reads,replication capacity index
T251S,A1540T,CA,428,0.0461
T251I,C1541T,CA,621,0.113
H252D,C1543G,CA,239,0.0551
H252Y,C1543T,CA,736,0.107
N253D,A1546G,CA,210,0.115
N253S,A1547G,CA,367,0.0419
P254S,C1549T,CA,326,0.121
P255S,C1552T,CA,692,0.216
P255H,C1553A,CA,311,0.155
P255L,C1553T,CA,453,0.0775
I256N,T1556A,CA,380,0.0173
I256T,T1556C,CA,210,0.125
I256S,T1556G,CA,49,0.134
P257T,C1558A,CA,441,0.114
V258I,G1561A,CA,675,0.0943
V258L,G1561C,CA,162,0.0813
V258E,T1562A,CA,315,0.0279
V258A,T1562C,CA,220,0.120
G259R,G1564A,CA,375,0.181
E260K,G1567A,CA,54,3.33
E260V,A1568T,CA,183,0.0480
I261V,A1570G,CA,216,0.0508
I261F,A1570T,CA,225,0.0975
Y262C,A1574G,CA,172,0.0766
Y262F,A1574T,CA,325,0.0473
K263E,A1576G,CA,223,0.0886
K263N,A1578T,CA,388,0.0509
W265R,T1582A,CA,128,0.0686
W265G,T1582G,CA,50,0.176
W265L,G1583T,CA,312,0.148
I266T,T1586C,CA,188,0.105
I266M,A1587G,CA,223,0.0394
I267F,A1588T,CA,360,0.152
I267T,T1589C,CA,362,0.133
L268P,T1592C,CA,276,0.159
L270I,T1597A,CA,878,0.0750
L270F,A1599T,CA,734,0.0718
N271D,A1600G,CA,238,0.0461
N271I,A1601T,CA,255,0.0775
N271K,T1602A,CA,896,0.0906
K272E,A1603G,CA,188,0.0584
K272I,A1604T,CA,515,0.158
K272N,A1605T,CA,238,0.0184
I273V,A1606G,CA,331,0.0862
I273L,A1606T,CA,422,0.0364
I273M,A1608G,CA,262,0.101
V274A,T1610C,CA,181,0.0727
M276V,A1615G,CA,424,0.0518
M276T,T1616C,CA,269,0.0571
M276I,G1617A,CA,486,0.149
M276I,G1617T,CA,37,0.237
Y277H,T1618C,CA,229,0.0862
Y277F,A1619T,CA,191,0.0804
S278C,A1621T,CA,100,0.0878
S278N,G1622A,CA,569,0.0964
P279T,C1624A,CA,269,0.0979
P279S,C1624T,CA,375,0.181
P279H,C1625A,CA,370,0.142
P279L,C1625T,CA,494,0.0666
T280A,A1627G,CA,212,0.0621
T280N,C1628A,CA,129,0.119
S281R,A1630C,CA,67,0.229
S281I,G1631T,CA,430,0.0357
I282V,A1633G,CA,271,0.0648
L283P,T1637C,CA,667,0.0625
L283R,T1637G,CA,190,0.0231
D284N,G1639A,CA,247,0.142
D284G,A1640G,CA,839,0.119
D284V,A1640T,CA,898,0.0495
D284E,C1641G,CA,194,0.0344
I285V,A1642G,CA,463,0.101
I285K,T1643A,CA,375,0.0296
I285T,T1643C,CA,435,0.0817
I285R,T1643G,CA,34,0.196
R286G,A1645G,CA,573,0.0465
R286K,G1646A,CA,382,0.215
Q287L,A1649T,CA,608,0.0183
G288R,G1651A,CA,334,0.399
G288E,G1652A,CA,449,0.198
P289A,C1654G,CA,209,0.0319
P289S,C1654T,CA,1093,0.0732
K290E,A1657G,CA,1053,0.0528
E291K,G1660A,CA,262,0.449
E291G,A1661G,CA,494,0.0495
P292S,C1663T,CA,197,0.184
P292H,C1664A,CA,123,0.0736
F293Y,T1667A,CA,461,0.0540
R294I,G1670T,CA,119,0.114
D295N,G1672A,CA,115,0.512
D295E,C1674A,CA,144,0.126
Y296H,T1675C,CA,216,0.0943
Y296C,A1676G,CA,133,0.0851
Y296F,A1676T,CA,273,0.0663
V297A,T1679C,CA,215,0.0631
D298G,A1682G,CA,233,0.0680
D298V,A1682T,CA,185,0.0612

The first 10 entries again:

For T251S (base A1540T, region CA, input reads 428) the result was 0.0461.
For T251I (base C1541T, region CA, input reads 621) the result was 0.113.
For H252D (base C1543G, region CA, input reads 239) the result was 0.0551.
For H252Y (base C1543T, region CA, input reads 736) the result was 0.107.
For N253D (base A1546G, region CA, input reads 210) the result was 0.115.
For N253S (base A1547G, region CA, input reads 367) the result was 0.0419.
For P254S (base C1549T, region CA, input reads 326) the result was 0.121.
For P255S (base C1552T, region CA, input reads 692) the result was 0.216.
For P255H (base C1553A, region CA, input reads 311) the result was 0.155.
For P255L (base C1553T, region CA, input reads 453) the result was 0.0775.

Since each clone held several changes (about five per kb), neutral changes can read low.
The authors read an index above 1 as above wild type (1.9% of all changes in the genome).
Nucleotide positions follow pNL4-3.

Reference: Al-Mawsawi et al. 2014, doi:10.1186/s12977-014-0124-6.